Pooled drug test results. Numbers come from NIAID ChemDB, via PubChem.

All rows: tests in culture; organism: Human cytomegalovirus; method: ELISA; endpoint: EC50

Neighbouring rows are from separate reports. ECn is the concentration giving n% inhibition of infection, replication or growth. Blank or dashed fields: not listed here.

compound,cell line,strain or isolate,result
Nc1nc2c(ncn2COC(CO)CO)c(=O)[nH]1,MRC-5,AD169,2.7 µM
Nc1ncc2ncn(/C=C3/CC3CO)c2n1,,,>100 µM
CC(C)c1ccc(NC(=O)N2CCC[C@H]2C(=O)N2CC[C@H]3[C@H]2[C@H](C)C(=O)N3C(=O)c2ccc([N+](=O)[O-])cc2)cc1,VERO,AD169,>70 µM
Nc1ncc2c(ncn2/C=C2\CC2CO)n1,,,>100 µM
COc1cc(OC)c(NC(=S)Nc2ccc(NC=O)cc2Cl)cc1Cl,HFF,AD169,30.7 µg/mL
COCCOCn1cc(C(N)=S)c2c(N)ncnc21,MRC-5,TOWNE,1.9 µM
CC(C)(C)OC(=O)N(CCC(=O)Nc1ccc(-c2csc(N)n2)cc1)C1CCc2ccccc21,HS68,AD169,7.5 µM
COC(=O)[C@H](Cc1ccccc1)Nc1nc2ccc(NC(=O)C3CCC3)c(C)c2c(=O)o1,HFF,,>100 µM
Nc1nc2c(ncn2COC(CO)CO)c(=O)[nH]1,MRC-5,Isolate 2288 UL54 S655L N685S,18.25 µM
COC(=O)[C@H](C)Nc1nc2ccc(NC(=O)OC(C)(C)C)c(C)c2c(=O)o1,HFF,,100 µM
Nc1nc2c(ncn2COC(CO)CO)c(=O)[nH]1,,TOWNE,10 µM
Nc1nc(-c2ccc(NC(=O)[C@@H]3CCCN3C(=O)c3ccccc3)cc2)cs1,HS68,AD169,>33 µM
COc1ccc(Cn2cc(C(N)=S)c3c(N)ncnc32)cc1,MRC-5,TOWNE,0.4 µM
Nc1nc(-c2ccc(NC(=O)CCN(Cc3ccccc3)C(=O)C3Cc4ccccc4C3)cc2)cs1,HS68,AD169,15 µM
CC(NC(=S)Nc1ccc(NC(=O)c2ccccc2F)cc1)c1ccc(F)cc1,HFF,AD169,>7 µg/mL
CC(C)(C)OC(=O)[C@H](Cc1ccccc1)NC(=O)Nc1ccc(-c2csc(N)n2)cc1,HS68,AD169,>4 µM
Cc1c(CNC(=O)OC(C)(C)C)ccc2nc(NC3(C(=O)N(C)C)CC3)oc(=O)c12,HFF,,100 µM
CC(C)c1ccc(NC(=O)N2CCC[C@H]2C(=O)N2CC[C@H]3[C@H]2[C@H](C)C(=O)N3C(=O)c2nccs2)cc1,VERO,AD169,>30 µM

For reference, 2 entries again:

compound,cell line,strain or isolate,result
CC(C)c1ccc(NC(=O)N2CCC[C@H]2C(=O)N2CC[C@H]3[C@H]2[C@H](C)C(=O)N3C(=O)c2ccc([N+](=O)[O-])cc2)cc1,VERO,AD169,>70 µM
Nc1nc2c(ncn2COC(CO)CO)c(=O)[nH]1,MRC-5,AD169,2.7 µM